Compound potency records, mixed from different reports. Data source: NIAID ChemDB in PubChem.

All rows: cytotoxicity tests; cells: MT-4; read-out: CC50

Blank or dashed fields: not listed here. CCn is the concentration with n% toxicity to the cells. Rows are shuffled and stem from different studies.

compound | method | result
CCCCN(CC)C(=O)Oc1nsnc1-c1c(Cl)cccc1Cl | - | 44.3 µM
CC(=O)SCCOP(=O)(OCCSC(C)=O)OC[C@@H]1CC[C@H](n2cnc3c(=O)[nH]cnc32)O1 | - | >100 µM
CCC(C)Oc1cc(N)nc(S(=O)(=O)c2cccc(C)c2)n1 | - | 97 µM
CCN(CC)C(=O)Oc1nsnc1-c1c(Cl)cccc1Cl | - | 326 µM
Nc1ccn([C@H]2CC[C@@H](CO)O2)c(=O)n1 | - | >100 µM
CC(C)(C)C(=O)SCCOC(=O)P(=O)(OCCSC(=O)C(C)(C)C)OCCSC(=O)C(C)(C)C | - | >10 µM
Nc1nc2c(ncn2CCOCP(=O)(O)O)c(=O)[nH]1 | - | 2.4 µM
O=C(O)P(=O)(O)O | MTT | 188 µg/mL
Cc1cc(C)cc(S(=O)(=O)c2c(C(=O)NCC(=O)NCc3ccccc3O)[nH]c3ccc(Cl)cc23)c1 | MTT | 47.3 µM
Cc1c(Cc2c(F)cccc2F)nc(Sc2ccc(F)cc2F)[nH]c1=O | MTT | >65.8 µM
CC(C)(C)OC(=O)[C@@H]1CCCN1C[C@@H](O)[C@H](Cc1ccccc1)NC(=O)[C@H](CC(N)=O)NC(=O)OCc1ccccc1 | MTT | >204 µg/mL
CCCCNC(=S)N/N=C(\C)c1nc2ccc(Cl)cc2[nH]1 | MTT | 1.76 µg/mL
CCCCN(C)C(=O)Oc1nsnc1-c1c(Cl)cccc1Cl | - | 22.5 µM
Cc1c(Cc2c(Cl)cccc2Cl)nc(SCc2ccc([N+](=O)[O-])cc2)[nH]c1=O | MTT | >58 µM
Cc1cn([C@@H]2O[C@@H](CO[Si](C)(C)C(C)(C)C)C3(OS(=O)(=O)C=C3N)[C@@H]2O[Si](C)(C)C(C)(C)C)c(=O)[nH]c1=O | trypan blue | 83 µg/mL
COc1ccc(CSc2nc(Cc3c(Cl)cccc3Cl)c(C)c(=O)[nH]2)cc1OC | MTT | >55 µM
O=c1cc(Cl)nc(Sc2ccccc2)[nH]1 | - | 186 µM
Cn1ncc2c1S(=O)(=O)N(CCc1ccccc1)C(=O)N2CCc1cccc(Cl)c1 | MTT | >300.1 µM
OC[C@@H]1O[C@H](n2c(=S)n([C@@H]3O[C@H](CO)[C@@H](O)[C@H]3O)c3cc(Cl)c(Cl)cc32)[C@@H](O)[C@H]1O | - | >100 µM
Cc1ccnc2c1NC(=O)c1cccnc1N2C1CC1 | MTT | 683 µM
Nc1ncnc2c1ncn2[C@H]1CC[C@@H](CO)O1 | - | >100 µM
Cc1c(SC2CCCCC2)n(COCCO)c(=O)[nH]c1=O | - | 440 µM
O=c1ccn([C@H]2CC[C@@H](CO)O2)c(=O)[nH]1 | MTT | >250 µg/mL
CCCCCCCCOC(=O)P(=O)(OC[C@H]1O[C@@H](n2cc(C)c(=O)[nH]c2=O)C[C@@H]1N=[N+]=[N-])OC[C@H]1O[C@@H](n2cc(C)c(=O)[nH]c2=O)C[C@@H]1N=[N+]=[N-] | - | >1 µM
CCCCCCN(C)C(=O)Oc1nsnc1-c1c(Cl)cccc1Cl | - | 32.7 µM
Cc1cn([C@@H]2O[C@H](CCC(C)C)C3(OS(=O)(=O)C=C3N)[C@H]2OC(=O)c2ccccc2)c(=O)[nH]c1=O | trypan blue | 12 µg/mL
CCCCSc1nc(N)cc(Sc2ccc3ccccc3c2)n1 | - | 68 µM
CCc1c(Cc2cccc(Br)c2)nc(SCc2ccc(OC)cc2)[nH]c1=O | - | >201 µM
Cc1ccc2c(c1)c1ccc(C)cc1c1ccc(CCCCCN3C(=O)CCC3=O)cc21 | - | 100 µM
Cc1c(Cc2c(Cl)cccc2Cl)nc(Sc2ccccc2)[nH]c1=O | MTT | >66.3 µM
Nc1ccn([C@@H]2O[C@H](CO)C[C@@H]2F)c(=O)n1 | MTT | 127 µg/mL
CCCCCCCCOC(=O)P(=O)(O)OC[C@H]1O[C@@H](n2cc(C)c(=O)[nH]c2=O)C[C@@H]1N=[N+]=[N-] | - | 42 µM
Cc1c(Sc2ccccc2)n(COCCO)c(=O)[nH]c1=O | - | >500 µM
Fc1cccc(F)c1C1SCc2nc3ccccc3n21 | - | 48.6 µM
Cc1cn(C2CC(N=[N+]=[N-])C(COP(=O)(OC[C@H]3O[C@@H](n4cc(C)c(=O)[nH]c4=O)C[C@@H]3N=[N+]=[N-])C(=O)OCCSC(=O)C(C)(C)C)O2)c(=O)[nH]c1=O | - | >10 µM
Cc1cn([C@@H]2O[C@@H](COC(=O)c3ccccc3)C3(OS(=O)(=O)C=C3N)C2O[Si](C)(C)C(C)(C)C)c(=O)[nH]c1=O | trypan blue | 88 µg/mL
Nc1ncnc2c1ncn2CCOCP(=O)(O)O | - | 229 µM
COc1ccc(CSc2nc(Cc3ccccc3Br)c(C)c(=O)[nH]2)cc1 | - | >179 µM
COc1ccc(Sc2nc(Cc3c(Cl)cccc3Cl)c(C)c(=O)[nH]2)cn1 | MTT | >61.3 µM
Cc1c(Cc2c(Cl)cccc2Cl)nc(S(=O)(=O)Cc2ccc([N+](=O)[O-])cc2)[nH]c1=O | MTT | >53 µM
Cc1cn([C@H]2C[C@H](N=[N+]=[N-])[C@@H](CO)[Se]2)c(=O)[nH]c1=O | - | >100 µM
O=c1[nH]cc([C@@H]2C[C@H](O)[C@H](CO)[NH2+]2)c(=O)[nH]1 | MTT | >20 µM
Cn1ncc2c1S(=O)(=O)N(CCc1ccccc1)C(=O)N2CCc1ccc(Br)cc1 | MTT | 54.7 µM
Cc1c(Sc2ccccc2)n(COCCO)c(=S)[nH]c1=O | - | 124 µM
Cc1cn([C@@H]2O[C@H](CC3CCCCC3)C3(OS(=O)(=O)C=C3N)[C@H]2O[Si](C)(C)C(C)(C)C)c(=O)[nH]c1=O | trypan blue | 7.4 µg/mL
CCC(C)Oc1cc(N)nc(Sc2cccc(OC)c2)n1 | - | ≥300 µM
Cc1c(Cc2c(Cl)cccc2Cl)nc(Sc2ccc(C#N)cc2)[nH]c1=O | MTT | 27.6 µM
OC[C@H]1O[C@@H](n2c(=S)[nH]c3cc(Cl)c(Cl)cc32)[C@H](O)[C@@H]1O | - | >100 µM
[N-]=[N+]=N[C@H]1C[C@H](n2cc(Cl)c(N)nc2=O)O[C@@H]1CO | - | >877 µM
Cn1ncc2c1S(=O)(=O)N(CCc1ccccc1)C(=O)N2CCc1ccccc1Cl | MTT | >300.1 µM
CCOP(=O)(N[C@@H](C)C(=O)OC)OC[C@H]1O[C@@H](n2cc(C)c(=O)[nH]c2=O)C[C@@H]1N=[N+]=[N-] | MTT | >227 µg/mL
CCCCSc1cc(N)nc(Cl)n1 | - | 114 µM
COc1ccc(CSc2nc(Cc3c(Cl)cccc3Cl)c(C)c(=O)[nH]2)c(OC)c1 | MTT | >55 µM
CCc1c(Cc2ccccc2Br)nc(SCc2ccc(OC)cc2)[nH]c1=O | - | >165 µM
Cn1ncc2c1S(=O)(=O)N(CCc1ccccc1)C(=O)N2CCc1ccccc1C#N | MTT | ≥198 µM
Cc1cn([C@H]2C[C@H](N=[N+]=[N-])[C@@H](CO)O2)c(=O)[nH]c1=O | - | 2.89 µg/mL
Cc1ccc(CCN2C(=O)N(CCc3ccc(C)cc3)S(=O)(=O)c3c2cnn3C)cc1 | MTT | ≥170.5 µM
COc1ccc(Sc2nc(Cc3c(Cl)cccc3Cl)c(C)c(=O)[nH]2)cc1 | MTT | >61.4 µM

Again, the opening 5 rows:

| compound | method | result |
|---|---|---|
| CCCCN(CC)C(=O)Oc1nsnc1-c1c(Cl)cccc1Cl | - | 44.3 µM |
| CC(=O)SCCOP(=O)(OCCSC(C)=O)OC[C@@H]1CC[C@H](n2cnc3c(=O)[nH]cnc32)O1 | - | >100 µM |
| CCC(C)Oc1cc(N)nc(S(=O)(=O)c2cccc(C)c2)n1 | - | 97 µM |
| CCN(CC)C(=O)Oc1nsnc1-c1c(Cl)cccc1Cl | - | 326 µM |
| Nc1ccn([C@H]2CC[C@@H](CO)O2)c(=O)n1 | - | >100 µM |